Results of unrelated studies side by side (data: NIAID ChemDB).

All rows: growth or infection tests; species: Aspergillus fumigatus; read-out: Geometric mean MIC

Lines come from different laboratories, so protocols vary.

smiles,strain or isolate,value
CCC(C)n1ncn(-c2ccc(N3CCN(c4ccc(OC[C@H]5CO[C@](Cn6cncn6)(c6ccc(Cl)cc6Cl)O5)cc4)CC3)cc2)c1=O,35 isolates,0.37 µg/mL
CCC(C)n1ncn(-c2ccc(N3CCN(c4ccc(OC[C@H]5CO[C@](Cn6cncn6)(c6ccc(Cl)cc6Cl)O5)cc4)CC3)cc2)c1=O,50 isolates,0.77 µg/mL
COc1cc(O)c2c(c1)C(=O)c1c(cc3c(c1O)-c1c(cc(C)c(C(=O)NC(CO)C(=O)O)c1O)[C@H](OC1OC(C)C(O)C(OC4OCC(O)C(O)C4O)C1O)C3O)C2=O,35 strains,7.99 µg/mL
C[C@H]1[C@H](O)[C@@H](C)/C=C/C=C/C=C/C=C/C=C/C=C/C=C/[C@H](O[C@@H]2O[C@H](C)[C@@H](O)[C@H](N)[C@@H]2O)C[C@@H]2O[C@](O)(C[C@@H](O)C[C@@H](O)CC[C@H](O)[C@@H](O)C[C@@H](O)CC(=O)O[C@H]1C)C[C@H](O)[C@H]2C(=O)O,6 strains,0.25 µg/mL
C[C@@H](c1ncncc1F)[C@](O)(Cn1cncn1)c1ccc(F)cc1F,35 isolates,0.67 µg/mL
C[C@H]1[C@H](O)[C@@H](C)/C=C/C=C/C=C/C=C/C=C/C=C/C=C/[C@H](O[C@@H]2O[C@H](C)[C@@H](O)[C@H](N)[C@@H]2O)C[C@@H]2O[C@](O)(C[C@@H](O)C[C@@H](O)CC[C@H](O)[C@@H](O)C[C@@H](O)CC(=O)O[C@H]1C)C[C@H](O)[C@H]2C(=O)O,3 isolates,0.47 µg/mL
CC[C@@H]([C@H](C)O)n1ncn(-c2ccc(N3CCN(c4ccc(OC[C@@H]5CO[C@@](Cn6cncn6)(c6ccc(F)cc6F)C5)cc4)CC3)cc2)c1=O,17 strains,0.09 µg/mL
CCC(C)n1ncn(-c2ccc(N3CCN(c4ccc(OC[C@H]5CO[C@](Cn6cncn6)(c6ccc(Cl)cc6Cl)O5)cc4)CC3)cc2)c1=O,94 isolates,0.45 µg/mL
O=C(NCc1ccc(Cl)cc1)c1ccccc1O,231,343.8 µM
CCCCCOc1ccc(-c2cc(-c3ccc(C(=O)N[C@H]4C[C@@H](O)[C@@H](O)NC(=O)[C@@H]5[C@@H](O)[C@@H](C)CN5C(=O)[C@H]([C@H](O)CC(N)=O)NC(=O)[C@H]([C@H](O)[C@@H](O)c5ccc(O)c(OS(=O)(=O)O)c5)NC(=O)[C@@H]5C[C@@H](O)CN5C(=O)[C@H]([C@@H](C)O)NC4=O)cc3)no2)cc1,17 isolates,0.008 µg/mL
CCC(C)n1ncn(-c2ccc(N3CCN(c4ccc(OC[C@H]5CO[C@](Cn6cncn6)(c6ccc(Cl)cc6Cl)O5)cc4)CC3)cc2)c1=O,17 strains,0.72 µg/mL
CCC(C)n1ncn(-c2ccc(N3CCN(c4ccc(OC[C@H]5CO[C@](Cn6cncn6)(c6ccc(Cl)cc6Cl)O5)cc4)CC3)cc2)c1=O,17 isolates,0.121 µg/mL
C[C@@H](c1ncncc1F)[C@](O)(Cn1cncn1)c1ccc(F)cc1F,28 isolates,0.05 µg/mL
C[C@@H](c1nc(-c2ccc(C#N)cc2)cs1)[C@](O)(Cn1cncn1)c1cc(F)ccc1F,62 isolates,0.578 µg/mL